PubChem BioAssay AID1259414 | Drosophila RNAi Screening Center, 2018
Assay: 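Host factors increasing or decreasing Wolbachia levels in cultured fly cells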 (primary screen). Cell system: Drosophila JW18 cells infected with Wolbachia. Reagents: long dsRNA against Drosophila genes, 0.25 µg dsRNA per well of a 384-well plate. Time to read-out: 5 days. Challenge: cells persistently infected with Wolbachia before knock-down; no added drug. Read-out: 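Imaged fluorescence in situ signal for Wolbachia 23S rRNA per DAPI-counted host cell, given as a robust z-score within each plate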. Reading the numbers: Wolbachia per cell robust z: higher = more Wolbachia per host cell than the plate typical. Hit rule: 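Active if absolute robust z reaches 1.5 in two or more of three replicates, leaving out multi- or no-target dsRNAs, genes unexpressed in JW18 and A1 wells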.
In all, the deposit lists about 24,000 reagents; below is a random part of those that have a named target and a result. In the full data, about 1,210 (5%) got an active call. 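Inactive calls also include excluded dsRNAs with several or no targets, genes unexpressed in JW18, and well A1, regardless of score.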 A number with no mark means an inactive call. A plus sign joins genes that one reagent is predicted to hit.

Target gene	dsRNA	Wolbachia per cell robust z, rep 1	Wolbachia per cell robust z, rep 2	Wolbachia per cell robust z, rep 3
asRNA:CR17025 + side-IV	DRSC14833	-0.458	0.0368	-1.35
CG15199	DRSC19646	1.06	1.08	0.998
CG10621	DRSC02078	0.447	1.45	-2.28
CG7607	DRSC10889	0.159	-1.03	-1.51
COX4 (Cytochrome c oxidase subunit 4)	DRSC02091	-0.149	1.61	1.21
COX4 (Cytochrome c oxidase subunit 4)	DRSC23915	0.432	1.1	1.01
snRNA:U12 (small nuclear RNA U12)	DRSC37892	0.364	-1.22	-0.424
CG7772	DRSC20056	-0.66	0.0356	-0.0555
NetA (Netrin-A)	DRSC20261	0.00636	-0.121	-0.548
Eip74EF (Ecdysone-induced protein 74EF)	DRSC11160	1.25	2.16	-0.455
Eip74EF (Ecdysone-induced protein 74EF)	DRSC23794	-2.1	0.341	-1.44
Eip74EF (Ecdysone-induced protein 74EF)	DRSC40711	-2.43	-0.414	-1.42
CG18180	DRSC10304	-8.3 (active)	-8.98	-0.873
CG18180	DRSC25404	-0.399	-0.361	-0.543
Ir56c (Ionotropic receptor 56c)	DRSC06544	0.125	0.305	-0.188
Ir56c (Ionotropic receptor 56c)	DRSC26227	-0.386	0.292	0.16
CG30195	DRSC04155	-0.596	-6.39	0.0708
CG9360	DRSC20180	0.452	-0.617	0.686
CG13226	DRSC06346	-0.458	-0.357	-2.96
SMSr (Sphingomyelin synthase related)	DRSC10998	-0.0147	0.0683	-1.98
SMSr (Sphingomyelin synthase related)	DRSC10999	-0.439	-1.4	-0.288
PH4alphaSG1 (prolyl-4-hydroxylase-alpha SG1)	DRSC15080	-1.16	-0.179	-0.487
CG42324	DRSC08431	0.727	0.642	-0.808
CG42324	DRSC08432	-0.669	1.93	-2.13
CG42324	DRSC26516	0.347	0.933	0.338
CG1504	DRSC20513	-0.017	0.44	-0.297
CG1504	DRSC26901	0.77	0.877	-2.26
BomBc3 (Bomanin Bicipital 3)	DRSC15873	-0.242	-1.05	-0.862
BomBc3 (Bomanin Bicipital 3)	DRSC29503	-1.03	-0.246	-0.211

2 entries already listed, ordered by “Wolbachia per cell robust z, rep 1”, high to low:
Target gene	dsRNA	Wolbachia per cell robust z, rep 1	Wolbachia per cell robust z, rep 2	Wolbachia per cell robust z, rep 3
Eip74EF (Ecdysone-induced protein 74EF)	DRSC23794	-2.1	0.341	-1.44
Eip74EF (Ecdysone-induced protein 74EF)	DRSC40711	-2.43	-0.414	-1.42
